Values of other authors in patent US7652050B2, “Methods for increasing the survival of aquatic animals infected with an aquatic virus” (Laboratorio de Siagnóstico GAM S.A, priority 2001, dated 2010).

Tested on: yellow fever virus
Settings: cited from earlier work

## COc1c(C)c2c(c(O)c1C/C=C(\C)CCC(=O)O)C(=O)OC2 [Myconhenolic Acid, 6-(4-hydroxy-6-methoxy-7-methyl-3-oxo-5-phthalanyl)-4-methyl-4-hexenoic acid]
  EC50 relative to EICAR (times lower): ten
  EC50 relative to ribavirin (times lower): 350 times
